Anti-infective test results gathered from many reports (values: NIAID ChemDB through PubChem).

Shared fields: cytotoxicity tests; cell line: TZM-bl; read-out: CC50

Blank or dashed fields: not listed here.

structure,method,result
COC(=O)C(N)(c1c[nH]c2ccc(F)cc12)C(F)(F)F,MTT,103 µM
C(=C1/CNC/C(=C\c2ccco2)C1=NNc1ccccc1)/c1ccco1,XTT,>58 µM
CCOC(=O)C(N)(C1=CNC2C=C(F)C=CC12)C(F)(F)F,MTT,>131 µM
O=C1CSC(c2c(Cl)ncnc2Cl)N1n1cnnc1,MTT,84.54 µg/mL
COC(=O)C(O)(c1c[nH]c2ccc(F)cc12)C(F)(F)F,MTT,385 µM
Cc1cc(N)c(C)c2c1[nH]c1c(Cl)cccc12,-,14.7 µM
CC(C)C[C@H](N)C(=O)O.[Na+],MTT,53.99 µM
CCOC(=O)C(O)(c1c[nH]c2cccc([N+](=O)[O-])c12)C(F)(F)F,MTT,122 µM
Fc1ccc(/C=C/c2cc(Cl)c3ccccc3n2)c(F)c1,MTT,72.92 µM
CC1=CC2=C(C(C)C)C(O)C(=O)/C(=C\NC(C)(C)C(=O)O)C2C(O)=C1c1c(C)cc2c(C(C)C)c(O)c(O)c(C=NC(C)(C)C(=O)O)c2c1O.[Na+].[Na+],MTT,65.1 µM
O=C(O)c1ccc(C2=N/C(=C/c3c(O)n(CCc4ccccc4)c(=S)[nH]c3=O)C=C2)cc1O,XTT,>20 µM
CCOC(=O)C(N)(C1=CNC2C=C(Cl)C=CC12)C(F)(F)F,MTT,>125 µM
O=C1O[C@@](CCl)(c2ccccc2)c2ccccc21,MTT,154.6 µM
COC(=O)C(O)(c1c[nH]c2ccc([N+](=O)[O-])cc12)C(F)(F)F,MTT,274 µM
Cc1cc(C)cc(-n2ncc3c(=O)[nH]c(C)cc32)c1,MTT,679 µM
O=C(O)c1ccc(C2=N/C(=C/c3c(O)[nH]c(=S)[nH]c3=O)C=C2)cc1O,XTT,>20 µM
CCOC(=O)C(O)(c1c[nH]c2ccc([N+](=O)[O-])cc12)C(F)(F)F,MTT,63.2 µM
Cc1ccc(-c2ccc3c(c2)C=C(C(=O)Nc2ccc(C[N+](C)(C)C4CCOCC4)cc2)CCC3)cc1,MTT,134 µM
CC[C@H](C)[C@H](N)C(=O)O.[Na+],MTT,62.34 µM
Clc1cc(/C=C/c2ccco2)nc2ccccc12,MTT,103 µM
Cc1ccc(C2(CCl)OC(=O)c3ccccc32)cc1,MTT,293 µM
O=C1CSC(c2c(Cl)cccc2Cl)N1n1cnnc1,MTT,171 µg/mL
CCC(Br)C1(c2ccc(F)cc2)OC(=O)c2ccccc21,MTT,230 µM
O=C1CSC(c2c(Cl)cncc2Cl)N1n1cnnc1,MTT,95.49 µg/mL
C[C@@H]1CCCC[C@H]1Oc1cc(CCc2ccccc2)[nH]c(=O)c1I,XTT / absorbance,164 µM
O=C1O[C@](CCl)(c2ccc(F)cc2)c2ccccc21,MTT,144.6 µM
COc1nc(C)nc(N2C(=O)CSC2c2c(Cl)ncnc2Cl)n1,MTT,147 µg/mL
CCOC(=O)C(N)(c1cn(C)c2ccccc12)C(F)(F)F,MTT,>133 µM
CC1=CC2=C(C(C)C)C(O)C(=O)/C(=C\N[C@@H](C(=O)O)C(C)C)C2C(O)=C1c1c(C)cc2c(C(C)C)c(O)c(O)c(C=N[C@H](C(=O)O)C(C)C)c2c1O.[Na+].[Na+],MTT,49.29 µM
Cc1ccnc2c1NC(=O)c1cccnc1N2C1CC1,MTT,1039 µM
CCOC(=O)C(O)(c1c[nH]c2cccc(O)c12)C(F)(F)F,MTT,808 µM
Clc1cc(/C=C/c2ccc(N3CCCCC3)cc2)nc2ccccc12,MTT,137 µM
Cc1nnc(C(=O)NC(C)(C)c2nc(C(=O)NCc3ccc(F)cc3)c(O)c(=O)n2C)o1,XTT,>20 µM
CN(C)CCCn1c(=O)c2ccc3c(=O)n(CCCN(C)C)c(=O)c4c5[nH]c6ccccc6[nH]c5c(c1=O)c2c34,MTT,0.532 µM
CC(C)Nc1cccnc1N1CCN(C(=O)c2cc3cc(NS(C)(=O)=O)ccc3[nH]2)CC1,MTT,72.6 µM
Cc1nnc(C(C)C)n1C1C[C@H]2CC[C@@H](C1)N2CC[C@H](NC(=O)C1CCC(F)(F)CC1)c1ccccc1,-,>1000 µM
COC(=O)C(O)(c1c[nH]c2ccc(Cl)cc12)C(F)(F)F,MTT,168 µM
CC[C@@H](C)[C@@H](N/C=C1\C(=O)C(O)C(C(C)C)=C2C=C(C)C(c3c(C)cc4c(C(C)C)c(O)c(O)c(C=N[C@H](C(=O)O)[C@@H](C)CC)c4c3O)=C(O)C21)C(=O)O.[Na+].[Na+],MTT,62.34 µM
CCCC(Cl)C1(c2ccc(F)cc2)OC(=O)c2ccccc21,MTT,252 µM
CCCCCn1cc(C(N)(C(=O)OCC)C(F)(F)F)c2ccccc21,MTT,>112 µM
c1cc(CN2CCCNCCNCCCNCC2)ccc1CN1CCCNCCNCCCNCC1,-,>1000 µM
Cc1cc2c(C(C)C)c(C)c(O)c(C=O)c2c(O)c1-c1c(C)cc2c(C(C)C)c(O)c(O)c(C=O)c2c1O,MTT,9.74 µM
Cc1ccc([C@@]2(CCl)OC(=O)c3ccccc32)cc1,MTT,146.7 µM

4 of the rows above, restated:

structure	method	result
Cc1ccc(C2(CCl)OC(=O)c3ccccc32)cc1	MTT	293 µM
COC(=O)C(N)(c1c[nH]c2ccc(F)cc12)C(F)(F)F	MTT	103 µM
c1cc(CN2CCCNCCNCCCNCC2)ccc1CN1CCCNCCNCCCNCC1	-	>1000 µM
Cc1nnc(C(=O)NC(C)(C)c2nc(C(=O)NCc3ccc(F)cc3)c(O)c(=O)n2C)o1	XTT	>20 µM

CCn: concentration that lowers growth or viability of the cells by n%. Rows are shuffled and stem from different studies.